Reference: ChEMBL document CHEMBL1914383

Sequences of proteins named here, by UniProt entry; tags and fusion partners are left off.
UniProt P15390, whole entry: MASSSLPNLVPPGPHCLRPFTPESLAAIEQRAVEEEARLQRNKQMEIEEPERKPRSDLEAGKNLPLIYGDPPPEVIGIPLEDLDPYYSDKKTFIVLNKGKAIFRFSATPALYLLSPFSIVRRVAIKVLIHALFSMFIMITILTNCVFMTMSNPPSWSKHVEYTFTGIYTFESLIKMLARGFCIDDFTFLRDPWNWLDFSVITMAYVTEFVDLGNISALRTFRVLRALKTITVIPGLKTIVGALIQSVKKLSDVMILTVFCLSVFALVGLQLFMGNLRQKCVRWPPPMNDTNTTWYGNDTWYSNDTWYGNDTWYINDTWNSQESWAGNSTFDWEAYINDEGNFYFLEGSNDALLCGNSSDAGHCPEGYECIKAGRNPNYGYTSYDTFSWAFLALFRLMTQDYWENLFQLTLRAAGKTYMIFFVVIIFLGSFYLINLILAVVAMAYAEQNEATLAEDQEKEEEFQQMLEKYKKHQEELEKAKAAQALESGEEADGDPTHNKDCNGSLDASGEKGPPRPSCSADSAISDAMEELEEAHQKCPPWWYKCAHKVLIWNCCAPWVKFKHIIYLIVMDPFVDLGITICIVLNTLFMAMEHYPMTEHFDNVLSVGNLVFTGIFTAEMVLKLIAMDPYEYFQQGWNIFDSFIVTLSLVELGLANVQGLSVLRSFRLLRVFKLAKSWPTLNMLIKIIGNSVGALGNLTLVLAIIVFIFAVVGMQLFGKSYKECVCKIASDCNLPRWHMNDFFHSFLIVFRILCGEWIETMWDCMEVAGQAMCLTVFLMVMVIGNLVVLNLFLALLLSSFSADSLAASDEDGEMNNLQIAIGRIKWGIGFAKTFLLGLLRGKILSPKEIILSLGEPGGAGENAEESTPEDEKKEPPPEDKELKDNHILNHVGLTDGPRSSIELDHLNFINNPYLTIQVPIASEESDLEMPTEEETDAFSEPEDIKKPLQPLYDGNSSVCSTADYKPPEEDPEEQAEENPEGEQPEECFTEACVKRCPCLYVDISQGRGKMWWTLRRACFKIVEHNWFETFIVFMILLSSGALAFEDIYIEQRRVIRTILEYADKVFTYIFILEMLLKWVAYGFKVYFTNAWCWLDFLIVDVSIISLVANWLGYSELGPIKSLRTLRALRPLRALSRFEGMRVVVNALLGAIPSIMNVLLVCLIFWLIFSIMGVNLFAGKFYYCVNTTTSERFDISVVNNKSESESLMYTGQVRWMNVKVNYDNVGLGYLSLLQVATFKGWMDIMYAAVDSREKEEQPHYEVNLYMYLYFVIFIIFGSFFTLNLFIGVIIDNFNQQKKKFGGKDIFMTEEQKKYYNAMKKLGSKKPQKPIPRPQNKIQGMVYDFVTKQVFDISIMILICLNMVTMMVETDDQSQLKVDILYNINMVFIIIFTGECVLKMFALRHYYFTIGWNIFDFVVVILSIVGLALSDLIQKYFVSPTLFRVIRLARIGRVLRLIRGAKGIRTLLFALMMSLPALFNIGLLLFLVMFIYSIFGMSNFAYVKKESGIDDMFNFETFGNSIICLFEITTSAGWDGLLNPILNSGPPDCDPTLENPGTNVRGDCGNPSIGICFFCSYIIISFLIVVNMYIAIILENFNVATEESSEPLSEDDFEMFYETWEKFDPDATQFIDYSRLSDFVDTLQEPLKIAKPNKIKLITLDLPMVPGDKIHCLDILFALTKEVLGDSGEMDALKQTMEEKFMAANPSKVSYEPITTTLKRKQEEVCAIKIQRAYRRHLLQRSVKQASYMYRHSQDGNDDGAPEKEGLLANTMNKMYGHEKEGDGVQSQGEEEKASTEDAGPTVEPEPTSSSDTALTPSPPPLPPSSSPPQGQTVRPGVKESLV
UniProt Q9WTU3, whole entry: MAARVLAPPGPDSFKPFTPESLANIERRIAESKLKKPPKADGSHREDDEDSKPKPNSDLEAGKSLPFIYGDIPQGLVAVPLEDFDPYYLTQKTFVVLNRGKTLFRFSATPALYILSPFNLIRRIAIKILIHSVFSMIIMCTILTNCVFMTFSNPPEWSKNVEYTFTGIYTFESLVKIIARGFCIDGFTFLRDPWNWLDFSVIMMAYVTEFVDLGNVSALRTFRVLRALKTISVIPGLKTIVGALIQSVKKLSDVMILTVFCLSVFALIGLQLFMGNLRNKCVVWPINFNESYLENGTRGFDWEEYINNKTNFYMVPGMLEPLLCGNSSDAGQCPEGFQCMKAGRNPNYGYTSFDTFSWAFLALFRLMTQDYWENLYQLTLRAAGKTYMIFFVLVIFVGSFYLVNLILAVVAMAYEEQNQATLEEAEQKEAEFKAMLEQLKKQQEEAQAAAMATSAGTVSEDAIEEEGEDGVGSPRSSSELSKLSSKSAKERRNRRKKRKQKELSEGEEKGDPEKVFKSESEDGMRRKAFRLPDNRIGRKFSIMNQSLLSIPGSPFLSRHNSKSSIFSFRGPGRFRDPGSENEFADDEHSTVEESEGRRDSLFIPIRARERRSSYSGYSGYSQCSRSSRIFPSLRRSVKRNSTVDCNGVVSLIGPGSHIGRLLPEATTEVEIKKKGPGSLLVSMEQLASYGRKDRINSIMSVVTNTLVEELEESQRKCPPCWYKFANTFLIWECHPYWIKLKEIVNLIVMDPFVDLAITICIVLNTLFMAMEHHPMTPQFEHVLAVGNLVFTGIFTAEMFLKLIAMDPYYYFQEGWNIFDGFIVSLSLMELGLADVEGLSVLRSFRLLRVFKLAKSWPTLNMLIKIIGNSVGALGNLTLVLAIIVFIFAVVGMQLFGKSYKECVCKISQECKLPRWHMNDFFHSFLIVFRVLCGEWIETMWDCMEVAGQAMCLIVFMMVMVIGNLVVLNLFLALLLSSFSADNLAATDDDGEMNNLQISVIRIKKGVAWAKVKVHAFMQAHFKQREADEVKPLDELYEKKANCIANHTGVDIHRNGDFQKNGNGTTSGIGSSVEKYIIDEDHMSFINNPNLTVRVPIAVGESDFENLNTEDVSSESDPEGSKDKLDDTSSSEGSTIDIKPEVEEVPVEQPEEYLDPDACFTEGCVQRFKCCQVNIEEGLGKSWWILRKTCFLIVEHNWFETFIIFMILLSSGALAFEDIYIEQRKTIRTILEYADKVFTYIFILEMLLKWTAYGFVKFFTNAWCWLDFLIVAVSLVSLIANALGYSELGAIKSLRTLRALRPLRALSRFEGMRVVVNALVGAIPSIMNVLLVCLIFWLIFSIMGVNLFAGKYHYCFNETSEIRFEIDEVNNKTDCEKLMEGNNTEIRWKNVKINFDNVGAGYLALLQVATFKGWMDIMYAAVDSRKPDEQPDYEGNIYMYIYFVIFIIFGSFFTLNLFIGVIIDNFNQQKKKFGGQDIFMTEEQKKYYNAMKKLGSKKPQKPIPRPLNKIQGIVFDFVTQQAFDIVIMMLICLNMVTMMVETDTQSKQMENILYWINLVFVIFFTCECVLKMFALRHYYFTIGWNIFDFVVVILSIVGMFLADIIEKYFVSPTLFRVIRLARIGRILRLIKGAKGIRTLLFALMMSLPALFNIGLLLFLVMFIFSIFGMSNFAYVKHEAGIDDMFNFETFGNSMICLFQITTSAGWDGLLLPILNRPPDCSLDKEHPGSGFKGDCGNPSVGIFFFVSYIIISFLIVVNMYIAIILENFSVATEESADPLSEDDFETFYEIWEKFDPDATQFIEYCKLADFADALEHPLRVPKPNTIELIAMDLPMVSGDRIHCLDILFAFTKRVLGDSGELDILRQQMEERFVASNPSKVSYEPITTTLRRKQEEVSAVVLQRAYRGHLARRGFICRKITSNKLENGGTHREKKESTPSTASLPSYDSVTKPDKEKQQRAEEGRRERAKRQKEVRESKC

How the values were obtained:
[1] = target: Sodium channel protein type 4 subunit alpha (Rattus norvegicus, UniProt P15390); assay: Inhibition of rat Nav1.4 expressed in Xenopus oocytes assessed as blockage of voltage-activated sodium current at holding potential of -100 mV by two-electrode voltage-clamp electrophysiology; conditions: oocyte
[2] = target: Sodium channel protein type 8 subunit alpha (Mus musculus, UniProt Q9WTU3); assay: Inhibition of mouse Nav1.6 expressed in Xenopus oocytes assessed as blockage of voltage-activated sodium current at holding potential of -100 mV by two-electrode voltage-clamp electrophysiology; conditions: oocyte

CC(=O)N[C@@H](CCCCN)C(=O)N[C@@H](Cc1c[nH]c2ccccc12)C(=O)N[C@H]1CC(=O)NCCCC[C@@H](C(=O)N[C@@H](CCCNC(=N)N)C(N)=O)NC(=O)[C@H](Cc2cnc[nH]2)NC(=O)[C@H](CC(=O)O)NC(=O)[C@H](CCCNC(=N)N)NC1=O
IC50 [1]: 54.3 µM
IC50 [2]: 39.6 µM
